The values that follow come from PMC7265302 (Nature Communications, 2020).

The assay addresses MavC, wild type (Legionella pneumophila, UniProt Q5ZTL4 1-482). Kind of assay: SEC. The note with it: both partners purified.

B1: UBE2N, free form (enzyme)
chain: MAGLPRRIIKETQRLLAEPVPGIKAEPDESNARYFHVVIAGPQDSPFEGGTFKLELFLPEEYPMAAPKVRFMTKIYHPNVDKLGRICLDILKDKWSPALQIRTVLLSIQALLSAPNPDDPLANDVAEQWKTNEAQAIETARAWTRLYAMNNI
notes: also called free UBE2N; free-form UBE2N; not shown: His-sumo, N-terminal, cleaved
Turning to B1, the binding result is listed as “binds”.
